Patent publication US20220002288A1, “MONOBACTAM COMPOUNDS AND USE THEREFOR” (priority 2018, published 2022)

Test system: clinically isolated Acinetobacter baumannii
Test: MIC experiment of clinically sourced bacterial strains
Assay type: cell-based
Details: strains of Table 4
Description: Compounds: the compound of Example 1 and Compound C of Comparative Example 3. Both test compounds were dissolved and diluted with DMSO, and the final concentrations were prepared as 64, 32, 16, 8, 4, 2, 1, 0.5, 0.25, 0.125, 0.0625 μg/mL in the experiment.
Bacterial strains: clinically isolated Acinetobacter baumannii, Pseudomonas aeruginosa, Klebsiella pneumoniae and Escherichia coli, all provided by HD Biosciences (Shanghai) Co., Ltd.
Medium: Trypticase soy agar (TSA) (BD BBL 211043), and Cation-adjusted Mueller Hinton broth (CAMHB) (BD BBL212322).
The experimental method was the same as that in the above Experimental Example 1.

Compound	number of strains with MIC≤0.063 μg/mL (the lowest detection concentration)
CC1(C)[C@H](NC(=O)/C(=N\O[C@@H](COc2ccc(-c3cn(CCCN)[n+](CC4CNC4)c3)cc2)C(=O)O)c2csc(N)n2)C(=O)N1OS(=O)(=O)[O-] [Compound C, reference compound]	2 strains
CC1(C)[C@H](NC(=O)/C(=N\O[C@@H](COc2ccc(C(=O)Nc3cn(CCCN)[n+](CC4CNC4)c3)cc2)C(=O)O)c2csc(N)n2)C(=O)N1OS(=O)(=O)[O-] [Example 1, (S)-3-((Z)-2-(((S)-2-(4-((1-(3-aminopropyl)-2-(azetidin-3-ylmethyl)-1H-pyrazol-2-ium-4-yl)carbamoyl)phenoxy)-1-carboxyethoxy)imino)-2-(2-aminothiazol-4-yl)acetylamino)-2,2-dimethyl-4-oxoazetidin-1-yl Sulfate]	11 strains

Counter-ions that a name gives are not always drawn.
